For the assay, the target named is biotinylated WNV NS5 PBM peptide (West Nile virus). Briefly: holdup assay (automated high-throughput chromatography); biotinylated NS5 PBM peptide as bait against 259 human PDZ domains expressed in E. coli; read-out binding intensity (BI), mean of replicates; BI threshold 0.2 for a significant interaction.

We go through one substance from article PMC7865074.

Take “Sorting nexin-27, PDZ domain (holdup construct) (from UniProt Q96L92 43-136) (domain or fragment)”: the BI (holdup binding intensity) came out at 0.69.
